According to US10978218B2, “Hydrogel network” (dated 2021):

Biological target: αHL mutant 2N (E111N/K147N) (Staphylococcus aureus, UniProt P09616, E137N/K173N)

γ-cyclodextrin
residence time of γCD within the pore (+20 mV, average±S.D., n=562): 146 ± 4 ms
block of the amplitude of the open pore current (γCD 50 μM (trans), αHL 2N (cis), n=562 events, two independent experiments): 64%
